Molecular target: the molecule itself
Assay: cryo-EM structure

B1: Pseudomonas aeruginosa bacteriophytochrome (PaBphP) (natural protein)
chain: MTSITPVTLANCEDEPIHVPGAIQPHGALVTLRADGMVLAASENIQALLGFVASPGSYLTQEQVGPEVLRMLEEGLTGNGPWSNSVETRIGEHLFDVIGHSYKEVFYLEFEIRTADTLSITSFTLNAQRIIAQVQLHNDTASLLSNVTDELRRMTGYDRVMAYRFRHDDSGEVVAESRREDLESYLGQRYPASDIPAQARRLYIQNPIRLIADVAYTPMRVFPALNPETNESFDLSYSVLRSVSPIHCEYLTNMGVRASMSISIVVGGKLWGLFSCHHMSPKLIPYPVRMSFQIFSQVCSAIVERLEQGRIAELLRVSTERRLALARRARDADDLFGALAHPDDGIAALIPCDGALVMLGGRTLSIRGDFERQAGNVLQRLQRDPERDIYHTDNWPQPSEDSPDGGDCCGVLAIRFHRQESGWIFWFRHEEVHRIRWGGKPEKLLTIGPSGPRLTPRGSFEAWEEVVRGHSTPWSETDLAIAEKLRLDLMELCLNHAAEVDRMRQRLIAVLGHDLRNPLQSISMAAALLSSSDTRTTELRQHISASSSRMERLVSQILDMSRLQSGIGLTVNPVDTDVSQLVRQIVCETDVAYPGLVIEIAIDPQVRAVVDPDRYAQVAANLLSNARHHGLPGRPVLVTLTRQGDEVCLSVLNETSGLSEAQLANLFEPFKRESADNQRNRNGLGIGLYISQAIAQAHQGRIDVDCRDDVITFCLRLPVRQAETGSSS
modifications: biliverdin chromophore (covalently bound bilin; attachment residue not given)
For B1, the “stoichiometry N” value was 2.
